A mixed list of measured activities; the numbers were collected in NIAID ChemDB.

Common to all: enzyme or target tests; agent: HIV-1; protein: Integrase; endpoint: IC50

Two numbers with a dash give a range or band.

SMILES,strain or isolate,changes,read by,result
O=C(O)C(=O)/C=C(\O)c1ccc(O)c(O)c1,,,strand transfer,1.1 µM
CCOP(=O)(CNC(=O)c1c(O)c2ncc(Cc3ccc(F)cc3)cc2n(CC(=O)N(C)C)c1=O)OCC,,,strand transfer,<0.1 µM
CCCCCCCCCCCCCCCCCCCCCCC(=O)O[C@@H]1[C@@H](C)[C@@]2(O)[C@@H](C=C(COC(C)=O)C[C@]3(O)C(=O)C(C)=C[C@@H]23)[C@@H]2C(C)(C)[C@]12O,,,absorbance,>67.5 µM
O=C(O)c1ccc(NCc2cc(O)ccc2O)cc1,,,strand transfer,10–100 µM
NCCCC[C@H](N)C(=O)NC[C@H]1O[C@H](O[C@H]2[C@H](O)[C@@H](O)[C@H](N)C[C@@H]2N)[C@H](N)[C@@H](O)[C@@H]1O,,,ELISA,>100 µg/mL
COC(=O)CC[C@]1(C)C2CCC=C(C(=O)O)[C@]2(C)CC[C@H]1C,,,strand transfer / absorbance,12.35 µM
COc1nc(=O)[nH]c2c1C(c1ccc(Br)cc1)c1c(OC)nc(=O)[nH]c1O2,,,3′ processing,208 µM
O=C(O)c1cc(-c2cn(Cc3ccc(F)cc3)cc2-c2ccccc2)n[nH]1,,,3′ processing,>333 µM
Nc1ccn([C@@H]2CO[C@H](COP(=O)(O)O[C@H]3C[C@H](n4cnc5c(N)ncnc54)O[C@@H]3COP(=O)(O)O)[C@H]2O)c(=O)n1,,,3′ processing,>1000 µM
O=C(O)C(=O)/C=C(\O)c1ccc2ccccc2c1,,,strand transfer,>100 µM
COC(=O)Nc1cc2c(cc1[N+](=O)[O-])OCCOCCOCCOCCO2,,,3′ processing,>250 µM
O=C(O)C(=O)CC(=O)c1cccn1Cc1ccccc1,IIIB,,strand transfer,0.2 µM
COc1cc(/C=C2\NC(=O)C3Cc4c(OC)c(C)c(OC)c(OC)c4C2N3C)c(OC)c(OC)c1OC,,,3′ processing,>250 µM
C=C1CC[C@H]2[C@](C)(CCC=C(C)C)[C@@H](OC(C)=O)CC[C@]2(C)[C@@H]1Cc1c(OC)oc(C)c(C)c1=O,,,absorbance,10 µM
COc1nc(=O)[nH]c2c1C(c1ccc(Cl)cc1)c1c(OC)nc(=O)[nH]c1O2,,,3′ processing,143.7 µM
CCOP(=O)(CCNC(=O)c1c(O)c2ncc(Cc3ccc(F)cc3)cc2n(C)c1=O)OCC,,,strand transfer,<0.1 µM
O=C(O)C(=O)CC(=O)c1c[nH]c2ccccc12,,,3′ processing,6.5 µM
O=c1oc2c(O)c(O)cc3c(=O)oc4c(O)c(O)cc1c4c23,,,3′ processing,1.2 µM
N#C/C(=C\c1cc(O)c(O)c(Br)c1)C(=O)NCCCNC(=O)/C(C#N)=C/c1cc(O)c(O)c(Br)c1,,,strand transfer,0.4 µM
COc1cc(C)cc2c1C(=O)c1c(cc(O)c(O)c1O)C2=O,,,strand transfer,23 µM
COc1c(O)cc2c(c1O)[C@@H]1O[C@H](CO)[C@@H](O)[C@H](O)[C@H]1OC2=O,,,3′ processing,>100 µM
O=c1oc2c(O)c(O)cc3c(=O)oc4c(O)c(O)cc1c4c23,,,strand transfer / absorbance,90.23 µg/mL
CCOP(=O)(O)CNC(=O)c1c(O)c2ncc(Cc3ccc(F)cc3)cc2n(CCN2CCCC2=O)c1=O,,,strand transfer,<0.1 µM
[N-]=[N+]=NC(=O)c1ccc(S(=O)(=O)c2ccc(F)cc2)cc1,,,3′ processing,90 µM
O=C(/C=C(\O)c1nn[nH]n1)c1ccc(Cc2ccc(F)cc2)o1,,,strand transfer,0.42 µg/mL
O=c1[nH]c2c(c(=O)[nH]1)C(c1ccccc1)c1c([nH]c(=O)[nH]c1=O)O2,,,3′ processing,22.4 µM
CN1C(C(=O)Nc2ccccn2)=C(O)c2ccccc2S1(=O)=O,,,3′ processing,190 µM
COC(=O)C1C(=O)N(O)C(=O)c2ccccc21,,,strand transfer,4.9 µM
CC1=C(O)C(=O)C(C2=C(O)C(=O)C(C)=C(O)C2=O)=C(O)C1=O,,,3′ processing,2.4 µM
O=C(O)/C=C/c1ccc(O)c(O)c1,,,absorbance,2.8 µM
O=[N+]([O-])c1cc(S(=O)(=O)c2ccc(N(CCO)CCO)c([N+](=O)[O-])c2)ccc1N(CCO)CCO,,,3′ processing,>100 µM
CO[C@@H]1O[C@@H](OC)[C@@](O)(C2C[C@]3(C)C4CCC=C5C(=O)OC[C@]54CC[C@H]3C(=O)O2)[C@@H]1O,,,strand transfer / absorbance,36.82 µM
COc1ccc(OC)c2c1c(/C(O)=C/C(=O)C(=O)O)cn2Cc1ccc(F)cc1,,,,0.06 µM
O=C(O)C(=O)/C=C(\O)c1nc2cncnc2n1Cc1ccccc1,,INTG,3′ processing,1000 µM
Cc1cn(C2CC(N=[N+]=[N-])C(CO)O2)c(=O)n(/C=C/C(=O)/C=C(\O)c2nnnn2Cc2ccc(F)cc2)c1=O,,,,350 µM
C[C@@H]1CC[C@@]23COC(=O)C2=CCCC3[C@@]1(C)CCC1=CC(=O)OC1,,,strand transfer / absorbance,35.72 µM
CCOP(=O)(CCNC(=O)c1c(O)c2ncc(Cc3ccc(F)cc3)cc2n(-c2ccc(F)cc2)c1=O)OCC,,,strand transfer,<0.1 µM
N#C/C(=C\c1cc(O)c(O)c(O)c1)C(=O)NCCCCCNC(=O)/C(C#N)=C/c1cc(O)c(O)c(O)c1,,,disintegration,2 µM
CN1C[C@@H](O)C(C)(C)Cn2c(c3c(c(O)c2=O)C(=O)N(Cc2ccc(F)c(Cl)c2)CC3)C1=O,,,strand transfer,0.003 µM
O=[N+]([O-])c1cc(S(=O)(=O)c2ccc(F)c([N+](=O)[O-])c2)ccc1F,,,disintegration,63.5 µM
COc1ccc(Cn2nnnc2C(=O)CC(=O)c2cc(OCc3ccccc3)cc(OCc3ccccc3)c2)cc1,,,3′ processing,21.7 µM
N#C/C(=C\c1ccc(O)c(O)c1)C(=O)NCCCCCCNC(=O)/C(C#N)=C/c1ccc(O)c(O)c1,,,disintegration,3 µM
O=C(O)C(=O)CC(=O)c1ccc(N2CCOCC2)cc1,,,3′ processing,100 µM
[N-]=[N+]=Nc1cn([C@H]2C[C@H](N=[N+]=[N-])[C@@H](COP(=O)(O)O)O2)c(=O)[nH]c1=O,,,strand transfer,50 µM
O=C(NCc1nccs1)c1nc(-c2cccs2)[nH]c(=O)c1O,,,strand transfer / absorbance,0.085 µM
CC(=O)c1cc(C(=O)CC(=O)Nc2ccccc2)sc1Nc1ccccc1,,,3′ processing,100 µM
COC(=O)C(=O)/C=C(\O)c1ccc2cc(O)c(O)cc2c1,,,3′ processing,11.3 µM
COc1cc(/C=C/c2ccc3ccc(C(=O)O)c(O)c3n2)cc(O)c1O,,,3′ processing,1 µM
NC(N)=NC(N)=Nc1cccc(S(=O)(=O)c2cccc(N=C(N)N=C(N)N)c2)c1,,,3′ processing,>100 µM
COC(=O)C1=Cc2cc(OC)c(OC)cc2C(C2C=C(OC)C(OC)=CC2)C1C(=O)OC,,,3′ processing,>250 µM
Nc1ccn([C@@H]2CO[C@H](COP(=O)(O)O[C@H]3[C@H](n4cnc5c(N)ncnc54)CO[C@@H]3COP(=O)(O)O)[C@H]2O)c(=O)n1,,,3′ processing,>1000 µM
C=CC(C)(C)O[C@H](C)[C@@H]1NC(=O)[C@H]2CSC(=N2)[C@@H](Cc2ccccc2)NC(=O)[C@@H]2CCCN2C(=O)[C@H](CO)NC(=O)C(CC(C)C)NC1=O,,,absorbance,>100 µg/mL
Cc1cn([C@@H]2CO[C@H](COP(=O)(O)O[C@H]3C[C@H](n4ccc(N)nc4=O)O[C@@H]3COP(=O)(O)O)[C@H]2O)c(=O)[nH]c1=O,,,strand transfer,58 µM
N#C/C(=C\c1cc(O)c(O)c(I)c1)C(=O)NCCCc1ccccc1,,,3′ processing / substrate cleavage,10–100 µM
O=c1[nH]c(=S)[nH]c2c1C(c1ccc(Cl)cc1)c1c([nH]c(=S)[nH]c1=O)O2,,,3′ processing,0.9 µM
COc1ccc(C(=O)CC(=O)C(=O)O)cc1Cc1ccccc1,IIIB,,strand transfer,0.2 µM
O=Cc1cc(S(=O)(=O)c2ccc(O)c(C=O)c2)ccc1O,,,3′ processing,0.6 µM
O=C(CC(=O)c1c[nH]c2ccccc12)c1nn[nH]n1,,,strand transfer,>784 µM
Nc1ncnc2c1ncn2[C@@H]1CO[C@H](COP(=O)(O)O)[C@H]1OP(=O)(O)OC[C@H]1O[C@@H](n2cnc3c(N)ncnc32)C[C@@H]1O,,,3′ processing,>1000 µM
O=C(/C=C/c1ccc(O)c(O)c1)O[C@H]1CCCC[C@@H]1OC(=O)/C=C/c1ccc(O)c(O)c1,,,3′ processing,24.8 µM
COc1ccc(Cn2nnnc2C(=O)CC(=O)c2c[nH]c3ccccc23)cc1,,,strand transfer,>533 µM
N#C/C(=C\c1ccc(O)c(O)c1)C(=O)NCCCc1ccccc1,,,strand transfer,10–100 µM
CC(=O)Oc1ccc(S(=O)(=O)c2ccc(OC(C)=O)cc2)cc1,,,3′ processing,>100 µM
O=c1c(O)cc2c(O)oc3c(=O)c(O)c(O)c4c(O)oc1c2c43,,,3′ processing,1.6 µM
CCCCCCCCCCCCCCCCOC(=O)C(CCSC)NCNc1ccc(S(=O)(=O)c2ccc(NCNC(CCSC)C(=O)OCCCCCCCCCCCCCCCC)cc2)cc1,,,3′ processing,>100 µM
O=C(/C=C/c1ccc(O)c(O)c1)O[C@@H]1CC(O)(C(=O)O)C[C@@H](OC(=O)/C=C/c2ccc(O)c(O)c2)C1O,,,strand transfer,0.63 µM

A second listing of 9 rows from above:

SMILES | strain or isolate | changes | read by | result
O=[N+]([O-])c1cc(S(=O)(=O)c2ccc(N(CCO)CCO)c([N+](=O)[O-])c2)ccc1N(CCO)CCO |  |  | 3′ processing | >100 µM
O=C(O)c1cc(-c2cn(Cc3ccc(F)cc3)cc2-c2ccccc2)n[nH]1 |  |  | 3′ processing | >333 µM
COc1ccc(OC)c2c1c(/C(O)=C/C(=O)C(=O)O)cn2Cc1ccc(F)cc1 |  |  |  | 0.06 µM
COc1ccc(C(=O)CC(=O)C(=O)O)cc1Cc1ccccc1 | IIIB |  | strand transfer | 0.2 µM
Nc1ccn([C@@H]2CO[C@H](COP(=O)(O)O[C@H]3C[C@H](n4cnc5c(N)ncnc54)O[C@@H]3COP(=O)(O)O)[C@H]2O)c(=O)n1 |  |  | 3′ processing | >1000 µM
O=C(O)/C=C/c1ccc(O)c(O)c1 |  |  | absorbance | 2.8 µM
O=C(/C=C(\O)c1nn[nH]n1)c1ccc(Cc2ccc(F)cc2)o1 |  |  | strand transfer | 0.42 µg/mL
O=C(CC(=O)c1c[nH]c2ccccc12)c1nn[nH]n1 |  |  | strand transfer | >784 µM
O=C(O)c1ccc(NCc2cc(O)ccc2O)cc1 |  |  | strand transfer | 10–100 µM

Blank or dashed fields: not listed here. ICn: concentration for n% inhibition. Conditions beyond the fields shown may differ between rows.